We go through two compounds from article PMC12383145 (Antibiotics, 2025).

In this data set the test system is HeLa cells. Nature of the data set: Fluorescence confocal microscopy, colocalization analysis (ImageJ JaCoP). The settings on record: 2 h at IC50. The format is cell-based. The protocol:
The possible cellular distribution of the peptides was determined by colocalization analysis of the Rhodamine B fluorescent signal, with fluorophores used to stain the nucleus (Hoechst 33342) and cytoplasm components (SMA antibody). ImageJ 1.54f analysis software and the JaCoP plugin were used to analyze signal colocalization.
HeLa cells (>70% confluence) were seeded on sterile round coverslips in 24-well plates with DMEM + 5% FBS and incubated at 37 °C, 5% CO2 for 24 h. After adhesion, the medium was replaced, and cells were treated with fluorescent peptides at their IC50 for 2 h. Then, cells were washed with PBS under constant stirring (3 × 10 min). Cellular fixation was performed using a solution containing 2% paraformaldehyde and 1% sucrose 100 mM in PBS for 30 min, followed by PBS washes (2 × 10 min). Permeabilization was carried out using a solution of 0.1% Triton X-100 and 20 mM glycine in PBS for 10 min, followed by two additional PBS washes. Blocking was performed with 1% BSA and 20 mM glycine in PBS for 10 min. Subsequently, cells were incubated with an anti-alpha-smooth muscle actin antibody (SMAC) labeled with Alexa Fluor 488 for 90 min in the dark. After incubation, cells were washed with PBS for 10 min. To stain the nuclei, 25 µL of Hoechst 3342 solution (1:50 dilution) was added and incubated for 7 min, followed by two PBS washes (2 × 10 min). The coverslips were dried by capillarity. For the fluorescence lecture, 5 µL of Fluoromount mounting medium was applied to the slide, and the coverslip containing the cells was inverted onto the medium. Slides were allowed to be dry-protected from light, and cells were visualized using a Leica DMi8 fluorescence confocal microscope. LAS X 3.10.0 and Fiji ImageJ 1.54f software were used for image analysis.

The mark [1] stands for this setting: RhB signal vs Alexa Fluor 488 SMA (cytoplasmic actin), HeLa.
[2] abbreviates: RhB signal vs Hoechst 3322 (nucleus), HeLa.

Positions of bridges follow the written chain, without caps; N, C: chain ends. Non-standard residues stand in square brackets, D forms with d. Residues, ends and D or L forms follow the SMILES beside them. Chains are numbered I, II in the order given. *: point of attachment. RhodamineB = CCN(CC)c1ccc2c(-c3ccccc3C(=O)*)c3ccc(=[N+](CC)CC)cc-3oc2c1; hPhe = N[C@@H](CCc1ccccc1)C(=O)O; Ahx = NCCCCCC(=O)O

Regarding `CCN(CC)c1ccc2c(-c3ccccc3C(=O)N[C@@H](CCCNC(=N)N)C(=O)N[C@@H](Cc3c[nH]c4ccccc34)C(=O)N[C@@H](CCC(N)=O)C(=O)N[C@@H](Cc3c[nH]c4ccccc34)C(=O)N[C@@H](CCCNC(=N)N)C(=O)N[C@@H](Cc3c[nH]c4ccccc34)C(=O)N[C@@H](CCC(N)=O)C(=O)N[C@@H](Cc3c[nH]c4ccccc34)C(=O)N[C@@H](CCCNC(=N)N)C(N)=O)c3ccc(=[N+](CC)CC)cc-3oc2c1` [RhB-1, RhB-RWQWRWQWR] (RhodamineB-RWQWRWQWR-NH2), the Correlation coefficient under setting [1] worked out at 0.444 and the Correlation coefficient under setting [2] is recorded as 0.697. The “Manders Coefficient M1 (Red)” value is listed as 0.488 (vs Alexa Fluor 488 SMA, HeLa) and 0.962 (vs Hoechst 3322, HeLa). The “Manders Coefficient M2 (Blue/Green)” value is, setting by setting: (vs Alexa Fluor 488 SMA, HeLa) 0.749; (vs Hoechst 3322, HeLa) 0.746.
Take `CCN(CC)c1ccc2c(-c3ccccc3C(=O)N[C@@H](CCCNC(=N)N)C(=O)N[C@@H](CCCNC(=N)N)C(=O)N[C@@H](Cc3c[nH]c4ccccc34)C(=O)N[C@@H](CCC(N)=O)C(=O)N[C@@H](Cc3c[nH]c4ccccc34)C(=O)N[C@@H](CCCNC(=N)N)C(=O)N[C@@H](CCc3ccccc3)C(=O)N[C@@H](CCCCN)C(=O)N[C@@H](CCCCN)C(=O)N[C@@H](CC(C)C)C(=O)NCC(=O)NCCCC[C@H](NC(=O)CNC(=O)[C@H](CC(C)C)NC(=O)[C@H](CCCCN)NC(=O)[C@H](CCCCN)NC(=O)[C@H](CCc3ccccc3)NC(=O)[C@H](CCCNC(=N)N)NC(=O)[C@H](Cc3c[nH]c4ccccc34)NC(=O)[C@H](CCC(N)=O)NC(=O)[C@H](Cc3c[nH]c4ccccc34)NC(=O)[C@H](CCCNC(=N)N)NC(=O)[C@H](CCCNC(=N)N)NC(=O)c3ccccc3-c3c4ccc(=[N+](CC)CC)cc-4oc4cc(N(CC)CC)ccc34)C(=O)NCCCCCC(N)=O)c3ccc(=[N+](CC)CC)cc-3oc2c1` [RhB-2, (RhB-RRWQWR-hF-KKLG)2K-Ahx] (I: RhodamineB-RRWQWR[hPhe]KKLGK[Ahx]-NH2 / II: RhodamineB-RRWQWR[hPhe]KKLG; amide I:12-II:C): the Correlation coefficient was found to be 0.664 under setting [1] and 0.488 under setting [2]. Moreover, the “Manders Coefficient M1 (Red)” value amounted to 0.947 (vs Alexa Fluor 488 SMA, HeLa) and 0.345 (vs Hoechst 3322, HeLa). In addition, the “Manders Coefficient M2 (Blue/Green)” value reads like this: (vs Alexa Fluor 488 SMA, HeLa) 0.77; (vs Hoechst 3322, HeLa) 0.435.
